Biological target: the molecule itself
Assay: negative staining transmission electron microscopy

B1: Hendra virus nucleocapsids (full-length nucleoprotein N, residues 1-532, assembled on bacterial RNA) (complex)
chain: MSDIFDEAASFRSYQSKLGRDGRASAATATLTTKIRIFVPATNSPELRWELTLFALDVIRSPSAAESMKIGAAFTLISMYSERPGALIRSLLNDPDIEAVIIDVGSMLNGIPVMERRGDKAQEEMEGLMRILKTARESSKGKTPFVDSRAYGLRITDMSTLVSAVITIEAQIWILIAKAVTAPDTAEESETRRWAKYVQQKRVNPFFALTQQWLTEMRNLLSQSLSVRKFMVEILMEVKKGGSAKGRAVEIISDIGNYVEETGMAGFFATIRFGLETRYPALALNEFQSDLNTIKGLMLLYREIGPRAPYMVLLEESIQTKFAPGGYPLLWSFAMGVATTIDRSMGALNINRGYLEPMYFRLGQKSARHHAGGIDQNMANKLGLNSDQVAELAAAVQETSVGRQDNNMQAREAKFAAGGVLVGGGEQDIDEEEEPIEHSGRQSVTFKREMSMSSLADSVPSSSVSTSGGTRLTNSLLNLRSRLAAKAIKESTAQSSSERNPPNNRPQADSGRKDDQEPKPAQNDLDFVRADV
binding result: binds
